Compound potency records, mixed from different reports. Data source: NIAID ChemDB in PubChem.

Common to all: tests on isolated targets; species: Hepatitis C virus; target: Nonstructural protein 5B

Percent inhibition refers to the dose given; in toxicity tests it is the harm to the cells.

{"compound": "O=C(O)c1ccc(N2C(=O)C(=Cc3ccccc3)SC2=S)cc1", "endpoint": "IC50", "value": "≤1 µM"}
{"compound": "CCN(c1cc2oc(-c3ccc(F)cc3)c(C(=O)NC)c2cc1O)S(C)(=O)=O", "endpoint": "IC50", "value": "≤0.5 µM"}
{"compound": "CCCc1ccc(-c2ccc(C=C3SC(=S)N(CCC(=O)O)C3=O)o2)s1", "endpoint": "IC50", "value": "≤1 µM"}
{"compound": "COc1ccc(CCC2(C3CCCC3)CC(=O)C(C(=O)Cc3ccccc3)C(=O)O2)cc1", "endpoint": "IC50", "value": "10–50 µM"}
{"compound": "COc1nc(NCCN2CCOCC2)nc(Nc2ccc3cn[nH]c3c2)n1", "endpoint": "inhibition", "dose": "1 µg/mL", "value": "33%"}
{"compound": "CC(C)Oc1ccc(CCC2(C3CCCC3)CC(=O)CC(=O)O2)cc1", "endpoint": "IC50", "value": "1–10 µM"}
{"compound": "CNC(=O)c1c(-c2ccc(F)cc2)oc2cc(C3CCOC3)c(OC)cc12", "endpoint": "IC50", "value": "≤0.5 µM"}
{"compound": "O=C1C=C(O)CC(CCCC2CCCCC2)(C2CCCC2)O1", "endpoint": "IC50", "value": "10–50 µM"}
{"compound": "COC(=O)[C@@H]1CCCN1c1nc(Nc2ccc3cn[nH]c3c2)nc(OC)n1", "endpoint": "inhibition", "dose": "1 µg/mL", "value": "10%"}
{"compound": "CNC(=O)c1c(-c2ccc(F)cc2)oc2cc(-c3nnc(C)o3)c(OC)cc12", "endpoint": "IC50", "value": "≤0.5 µM"}
{"compound": "COc1nc(NCCO)nc(Nc2ccc3[nH]ncc3c2)n1", "endpoint": "inhibition", "dose": "1 µg/mL", "value": "37%"}
{"compound": "CCNS(=O)(=O)Oc1cc(C(C)(C)C)c(SC2=C(O)CC(CCc3cccc(O)c3)(C3CCCC3)OC2=O)cc1C", "endpoint": "IC50", "value": ">50 µM"}
{"compound": "CNC(=O)c1c(-c2ccc(F)cc2)oc2cc(N(CS(C)(=O)=O)c3ccncc3)c(OC)cc12", "endpoint": "IC50", "value": "≤0.5 µM"}
{"compound": "CON1C(Nc2ccc3cn[nH]c3c2)=NC(NC(C)C)=NC1NC(C)C", "endpoint": "inhibition", "dose": "0.1 µg/mL", "value": "0%"}
{"compound": "O=C1C=C(O)CC(CCCc2ccccc2)(C2CCCC2)O1", "endpoint": "IC50", "value": ">50 µM"}
{"compound": "CNC(=O)c1c(-c2ccc(F)cc2)oc2ccc(OC)cc12", "endpoint": "IC50", "value": "≤0.5 µM"}
{"compound": "CCOc1c(F)cc(CCC2(C3CCCC3)CC(=O)CC(=O)O2)cc1F", "endpoint": "IC50", "value": "1–10 µM"}
{"compound": "COc1nc(Nc2ccc3[nH]ncc3c2)nc(N2CCCC2)n1", "endpoint": "inhibition", "dose": "10 µg/mL", "value": "75%"}
{"compound": "CNC(=O)c1c(-c2ccc(F)cc2)oc2cc(C3CNC(=O)C3)c(OC)cc12", "endpoint": "IC50", "value": "≤0.5 µM"}
{"compound": "O=C(O)CCCCCc1ccc(N2C(=O)C(=Cc3ccc(-c4ccc(Cl)c(Cl)c4)o3)SC2=S)cc1", "endpoint": "IC50", "value": "≤1 µM"}
{"compound": "CNC(=O)c1c(-c2ccc(F)cc2)oc2cc(NS(C)(=O)=O)c(OC)cc12", "endpoint": "IC50", "value": "≤0.5 µM"}
{"compound": "O=C1NC(=S)SC1=Cc1ccc(-c2ccc(Cl)c(Cl)c2)s1", "endpoint": "IC50", "value": "≤1 µM"}
{"compound": "CNC(=O)c1c(-c2ccc(F)cc2)oc2cc(N(C)S(C)(=O)=O)c(-c3cccs3)cc12", "endpoint": "IC50", "value": "≤0.5 µM"}
{"compound": "O=C(O)c1ccc(N2C(=O)C(=Cc3ccc(-c4cccs4)o3)SC2=S)cc1", "endpoint": "IC50", "value": "≤1 µM"}
{"compound": "COc1nc(NCCN2CCOCC2)nc(Nc2ccc3[nH]ncc3c2)n1", "endpoint": "inhibition", "dose": "1 µg/mL", "value": "11%"}

The last 2 rows once more:

compound,endpoint,dose,value
O=C(O)c1ccc(N2C(=O)C(=Cc3ccc(-c4cccs4)o3)SC2=S)cc1,IC50,-,≤1 µM
COc1nc(NCCN2CCOCC2)nc(Nc2ccc3[nH]ncc3c2)n1,inhibition,1 µg/mL,11%

Two numbers with a dash give a range or band. An empty or dashed field is not shown. Lines come from different laboratories, so protocols vary. ICn: concentration for n% inhibition.